The test system of data set [1] is HR2 peptide (SEQ ID NO:33). Put plainly: Protein chip assay (Biacore, surface plasmon resonance) of binding to HR2 peptide. Also on record: species or system HIV-1. An excerpt: These include a protein chip assay (using Biacore analysis) in which surface plasmon resonance is used to detect the binding, and kinetics thereof, between a synthetic peptide and an HR2 peptide; and a fluorescence polarization assay. In the fluorescence polarization assay, a detectable moiety comprising a fluorescent dye (e.g., rhodamine and/or fluorescein) was used to label HR2 peptide, and the assay was then allowed to proceed under sufficient conditions and for a sufficient period of time for labeled peptide to bind to HR1 peptide, or synthetic peptide (or trimer formed therefrom).
(In SPR one partner is held on a chip, and binding of the other changes the refractive index at the surface.)

The test system of another data set is HIV IIIB. It is filed as cell-based, HIV-1. Conditions: IIIB.
Data set [2] can be described thus: Helicity by circular dichroism. It is filed as physicochemical. The following applies: at 10 μM, 25° C. (Circular dichroism is the unequal absorption of left and right circularly polarised light.)
A short description of data set [3]: Sedimentation equilibrium experiments (oligomerization state). The following applies: in solution; for Oligomerization: peptide 1 μM to 100 μM. The class given is physicochemical.
The subject of data set [4] is HR2 peptide (SEQ ID NO:33). Put plainly: Fluorescence polarization assay of binding to labeled HR2 peptide. Also on record: species or system HIV-1. Conditions: for HR2 peptide binding: ability to complex with HR2 peptide denoted as yes; for Binding curve with HR2 peptide (FIG. 4): fluorescence polarization, shape of the transition.
A short description of data set [5]: Thermal stability (Tm) by CD signal at 222 nm. Conditions: at 10 μM. The class given is physicochemical.
Data set [6] can be described thus: Oligomerization as determined by crystallography. It is filed as physicochemical.

Turning to `CC[C@H](C)[C@H](NC(=O)CNC(=O)[C@H](Cc1c[nH]c2ccccc12)NC(=O)[C@@H](NC(=O)[C@@H](NC(=O)[C@H](C)NC(=O)[C@H](CCC(N)=O)NC(=O)[C@H](CC(C)C)NC(=O)[C@H](C)NC(=O)[C@H](Cc1c[nH]cn1)NC(=O)[C@H](CCC(N)=O)NC(=O)[C@H](CCC(N)=O)NC(=O)[C@H](C)NC(=O)[C@H](CCC(=O)O)NC(=O)[C@@H](NC(=O)[C@H](C)NC(=O)[C@H](CCCNC(=N)N)NC(=O)[C@H](CC(C)C)NC(=O)[C@H](CC(C)C)NC(=O)[C@H](CC(N)=O)NC(=O)[C@H](CC(N)=O)NC(=O)[C@H](CCC(N)=O)NC(=O)[C@H](CCC(N)=O)NC(=O)[C@H](CCC(N)=O)NC(=O)[C@@H](NC(=O)[C@@H](NC(=O)CNC(=O)[C@H](CO)NC(=O)[C@H](CC(C)C)NC(=O)[C@H](CC(C)C)NC(=O)[C@H](CCC(N)=O)NC(=O)[C@H](CCCNC(=N)N)NC(=O)[C@H](C)NC(=O)[C@H](CCC(N)=O)NC(C)=O)[C@@H](C)CC)C(C)C)[C@@H](C)CC)[C@@H](C)O)C(C)C)C(=O)N[C@@H](CCCCN)C(=O)N[C@@H](CCC(N)=O)C(=O)N[C@@H](CC(C)C)C(=O)N[C@@H](CCC(N)=O)C(=O)N[C@@H](C)C(=O)N[C@@H](CCCNC(=N)N)C(=O)N[C@H](C(=O)N[C@@H](CC(C)C)C(=O)N[C@@H](C)C(=O)N[C@H](C(=O)N[C@@H](CCC(=O)O)C(=O)N[C@@H](CCCNC(=N)N)C(=O)N[C@@H](Cc1ccc(O)cc1)C(=O)N[C@@H](CC(C)C)C(=O)N[C@@H](CCCCN)C(N)=O)C(C)C)[C@@H](C)CC` [SEQ ID NO:32], in data set [1], the K off is recorded as 1.9 × 10^3/, the K on was 6.1 × 10^5 and the Kd was 3.1 nM. Further, in the data set with HIV IIIB, the “Antiviral activity against HIV IIIB IC50” value amounted to 0.59 µg/mL and the “Antiviral activity against HIV IIIB IC90” value was 1.90 µg/mL. In data set [2], the Helicity came out at 87%. In data set [3], the Oligomerization entry was “as a trimeric”. The “Oligomeric state at low concentrations” value in data set [3] (less than 50 nM) was “monomer and trimer equilibrium”. For the same compound, in data set [4], the HR2 peptide binding entry is “Yes” and the “Binding curve with HR2 peptide (FIG. 4)” value is “cooperative transition at a narrow concentration range”. The “Stability Tm” value in data set [5] was “Tm 69 °C”.
With `CC[C@H](C)[C@H](NC(=O)CNC(=O)[C@H](Cc1c[nH]c2ccccc12)NC(=O)[C@@H](NC(=O)[C@@H](NC(=O)[C@H](C)NC(=O)[C@H](CCC(N)=O)NC(=O)[C@H](CC(C)C)NC(=O)[C@H](C)NC(=O)[C@H](Cc1c[nH]cn1)NC(=O)[C@H](CCC(N)=O)NC(=O)[C@@H](NC(=O)[C@H](C)NC(=O)[C@H](CCC(=O)O)NC(=O)[C@@H](NC(=O)[C@H](C)NC(=O)[C@H](CCCNC(=N)N)NC(=O)[C@H](CC(C)C)NC(=O)[C@H](CC(C)C)NC(=O)[C@H](CC(N)=O)NC(=O)[C@H](CC(N)=O)NC(=O)[C@H](CCC(N)=O)NC(=O)[C@H](CCC(N)=O)NC(=O)[C@H](CCC(N)=O)NC(=O)[C@@H](NC(=O)[C@@H](NC(=O)CNC(=O)[C@H](CO)NC(=O)[C@H](CC(C)C)NC(=O)[C@H](CC(C)C)NC(=O)[C@H](CCC(N)=O)NC(=O)[C@H](CCCNC(=N)N)NC(=O)[C@@H](NC(=O)[C@H](CCC(N)=O)NC(C)=O)[C@@H](C)CC)[C@@H](C)CC)C(C)C)[C@@H](C)CC)[C@@H](C)CC)[C@@H](C)CC)C(C)C)C(=O)N[C@@H](CCCCN)C(=O)N[C@@H](CCC(N)=O)C(=O)N[C@@H](CC(C)C)C(=O)N[C@@H](CCC(N)=O)C(=O)N[C@@H](C)C(=O)N[C@@H](CCCNC(=N)N)C(=O)N[C@H](C(=O)N[C@@H](CC(C)C)C(=O)N[C@@H](C)C(=O)N[C@H](C(=O)N[C@@H](CCC(=O)O)C(=O)N[C@@H](CCCNC(=N)N)C(=O)N[C@@H](Cc1ccc(O)cc1)C(=O)N[C@@H](CC(C)C)C(=O)N[C@@H](CCCCN)C(N)=O)C(C)C)[C@@H](C)CC` [SEQ ID NO:36], in data set [1], the K off is on record as 3.3 × 10^−3/, the K on was 4.3 × 10^5/ and the Kd was 7.7 nM. In the data set with HIV IIIB, the “Antiviral activity against HIV IIIB IC50” value was determined as 0.73 µg/mL and the “Antiviral activity against HIV IIIB IC90” value amounted to 3.03 µg/mL. In data set [2], this compound registered a Helicity of 90%. Moreover, in data set [4], the HR2 peptide binding entry is recorded as “Yes” and the “Binding curve with HR2 peptide (FIG. 4)” value is “cooperative transition at a narrow concentration range”. Further, in data set [5], the “Stability Tm” value is greater than 97 °C. For the same compound, in data set [6], the Oligomerization entry is “Trimer*”.
Take `CC[C@H](C)[C@H](NC(=O)CNC(=O)[C@H](Cc1ccccc1)NC(=O)[C@@H](NC(=O)[C@@H](NC(=O)[C@H](CC(C)C)NC(=O)[C@H](CCC(N)=O)NC(=O)[C@H](CC(C)C)NC(=O)[C@H](CC(C)C)NC(=O)[C@H](Cc1c[nH]cn1)NC(=O)[C@H](CCC(N)=O)NC(=O)[C@H](CCC(N)=O)NC(=O)[C@H](C)NC(=O)[C@H](CCC(=O)O)NC(=O)[C@@H](NC(=O)[C@H](C)NC(=O)[C@H](CCCNC(=N)N)NC(=O)[C@H](CC(C)C)NC(=O)[C@H](CC(C)C)NC(=O)[C@H](CC(N)=O)NC(=O)[C@H](CC(N)=O)NC(=O)[C@H](CCC(N)=O)NC(=O)[C@H](CCC(N)=O)NC(=O)[C@H](CCC(N)=O)NC(C)=O)[C@@H](C)CC)[C@@H](C)O)C(C)C)C(=O)N[C@@H](CCCCN)C(=O)N[C@@H](CCC(N)=O)C(=O)N[C@@H](CC(C)C)C(=O)N[C@@H](CCC(N)=O)C(=O)N[C@@H](C)C(=O)N[C@@H](CCCNC(=N)N)C(=O)N[C@H](C(=O)N[C@@H](CC(C)C)C(=O)N[C@@H](C)C(=O)N[C@H](C(=O)N[C@@H](CCC(=O)O)C(=O)N[C@@H](CCCNC(=N)N)C(=O)N[C@@H](Cc1ccc(O)cc1)C(=O)N[C@@H](CC(C)C)C(=O)N[C@@H](CCCCN)C(=O)N[C@@H](CC(=O)O)C(=O)N[C@@H](CCC(N)=O)C(N)=O)C(C)C)[C@@H](C)CC` [SEQ ID NO:43]: in the data set with HIV IIIB, the “Antiviral activity against HIV IIIB IC50” value turned out to be 1.34 µg/mL and the “Antiviral activity against HIV IIIB IC90” value came to 3.81 µg/mL. In addition, in data set [2], the Helicity amounted to 94%. Further, the Oligomerization result in data set [3] is recorded as “Trimer**”. Besides, the HR2 peptide binding result in data set [4] is “Yes”. Also, the “Stability Tm” value in data set [5] is “Tm 74 °C”.
Take `CC[C@H](C)[C@H](NC(=O)CNC(=O)[C@H](Cc1c[nH]c2ccccc12)NC(=O)[C@@H](NC(=O)[C@@H](NC(=O)[C@H](C)NC(=O)[C@H](CCC(N)=O)NC(=O)[C@H](CC(C)C)NC(=O)[C@H](CC(C)C)NC(=O)[C@H](Cc1c[nH]cn1)NC(=O)[C@H](CCC(N)=O)NC(=O)[C@H](CCC(N)=O)NC(=O)[C@H](C)NC(=O)[C@H](CCC(=O)O)NC(=O)[C@@H](NC(=O)[C@H](C)NC(=O)[C@H](CCCNC(=N)N)NC(=O)[C@H](CC(C)C)NC(=O)[C@H](CC(C)C)NC(=O)[C@H](CC(N)=O)NC(=O)[C@H](CC(N)=O)NC(=O)[C@H](CCC(N)=O)NC(=O)[C@H](CCC(N)=O)NC(=O)[C@H](CCC(N)=O)NC(=O)[C@@H](NC(=O)[C@@H](NC(=O)CNC(=O)[C@H](CO)NC(=O)[C@H](CC(C)C)NC(=O)[C@H](CC(C)C)NC(=O)[C@H](CCC(N)=O)NC(=O)[C@H](CCCNC(=N)N)NC(=O)[C@H](C)NC(=O)[C@H](CCC(N)=O)NC(C)=O)[C@@H](C)CC)C(C)C)[C@@H](C)CC)[C@@H](C)O)C(C)C)C(=O)N[C@@H](CCCCN)C(=O)N[C@@H](CCC(N)=O)C(=O)N[C@@H](CC(C)C)C(=O)N[C@@H](CCC(N)=O)C(=O)N[C@@H](C)C(=O)N[C@@H](CCCNC(=N)N)C(=O)N[C@H](C(=O)N[C@@H](CC(C)C)C(=O)N[C@@H](C)C(=O)N[C@H](C(=O)N[C@@H](CCC(=O)O)C(=O)N[C@@H](CCCNC(=N)N)C(=O)N[C@@H](Cc1ccc(O)cc1)C(=O)N[C@@H](CC(C)C)C(=O)N[C@@H](CCCCN)C(=O)N[C@@H](CC(=O)O)C(=O)N[C@@H](CCC(N)=O)C(N)=O)C(C)C)[C@@H](C)CC` [SEQ ID NO:47]: the “Antiviral activity against HIV IIIB IC50” value in the data set on HIV IIIB was determined as 0.61 µg/mL. The compound also had a Helicity in data set [2] of 68%. In addition, the Oligomerization entry in data set [3] is listed as “a trimeric”. For the same compound, the HR2 peptide binding result in data set [4] is “Yes”. In data set [5], the “Stability Tm” value was “Tm 77 °C”.
Taken in the same sequence, the figures for `CC[C@H](C)[C@H](NC(=O)CNC(=O)[C@H](Cc1c[nH]c2ccccc12)NC(=O)[C@@H](NC(=O)[C@@H](NC(=O)[C@H](C)NC(=O)[C@H](CCC(N)=O)NC(=O)[C@H](CC(C)C)NC(=O)[C@H](CC(C)C)NC(=O)[C@H](Cc1c[nH]cn1)NC(=O)[C@H](CCC(N)=O)NC(=O)[C@H](CCC(N)=O)NC(=O)[C@H](C)NC(=O)[C@H](CCC(=O)O)NC(=O)[C@@H](NC(=O)[C@H](C)NC(=O)[C@H](CCCNC(=N)N)NC(=O)[C@H](CC(C)C)NC(=O)[C@H](CC(C)C)NC(=O)[C@H](CC(N)=O)NC(=O)[C@H](CC(N)=O)NC(=O)[C@H](CCC(N)=O)NC(=O)[C@H](CCC(N)=O)NC(=O)[C@H](CCC(N)=O)NC(C)=O)[C@@H](C)CC)[C@@H](C)O)C(C)C)C(=O)N[C@@H](CCCCN)C(=O)N[C@@H](CCC(N)=O)C(=O)N[C@@H](CC(C)C)C(=O)N[C@@H](CCC(N)=O)C(=O)N[C@@H](C)C(=O)N[C@@H](CCCNC(=N)N)C(=O)N[C@H](C(=O)N[C@@H](CC(C)C)C(=O)N[C@@H](C)C(=O)N[C@H](C(=O)N[C@@H](CCC(=O)O)C(=O)N[C@@H](CCCNC(=N)N)C(=O)N[C@@H](Cc1ccc(O)cc1)C(=O)N[C@@H](CC(C)C)C(=O)N[C@@H](CCCCN)C(=O)N[C@@H](CC(=O)O)C(=O)N[C@@H](CCC(N)=O)C(N)=O)C(C)C)[C@@H](C)CC` [SEQ ID NO:48] were 0.89 µg/mL, 72%, “as a trimeric”, “Yes” and “Tm 68 °C”.

The Kd is the constant that tells how readily two partners part at equilibrium.

Source of the values: patent publication US20040091855A1, “Method for production of antivirals by use of HIV-derived HR1 peptides, and trimers formed therefrom” (priority 2002, published 2004).
